Anti-infective test results gathered from many reports (values: NIAID ChemDB through PubChem).

All rows: growth or infection tests; species: Candida tropicalis; endpoint: MIC90

A number after MIC or MFC names an inhibition level or a share of isolates.

O=C(c1ccccc1)C(c1ccccc1)n1cnc2ccccc21 ; method: agar ; result: 64 µg/mL
C=CCc1ccc(O)c(OC)c1 ; strain: 3056 ; method: turbidity ; result: 485 µg/mL
Nc1[nH]c(=O)ncc1F ; strain: 11 isolates ; result: 0.5 µg/mL
C[C@@H](c1ncncc1F)[C@](O)(Cn1cncn1)c1ccc(F)cc1F ; method: broth dilution ; result: >4 µg/mL
C/C(C=O)=C\c1ccccc1 ; strain: ATCC 750 ; method: agar diffusion ; result: 300 µM
COc1ccc(C(c2ccc(OC)cc2)n2ccnc2)cc1 ; method: agar ; result: >256 µg/mL
Nc1[nH]c(=O)ncc1F ; strain: 10 isolates ; result: 0.08 µg/mL
CC[C@@H]([C@H](C)O)n1ncn(-c2ccc(N3CCN(c4ccc(OC[C@@H]5CO[C@@](Cn6cncn6)(c6ccc(F)cc6F)C5)cc4)CC3)cc2)c1=O ; method: broth dilution ; result: 0.5 µg/mL
COc1ccc(C(c2ccc(OC)cc2)n2cncn2)cc1 ; method: agar ; result: >256 µg/mL
CCC(C)CC(C)CCCCCCCCC(=O)N[C@H]1C[C@@H](O)[C@H](NCCN)NC(=O)[C@@H]2[C@@H](O)CCN2C(=O)[C@H]([C@H](O)CCN)NC(=O)[C@H]([C@H](O)[C@@H](O)c2ccc(O)cc2)NC(=O)[C@@H]2C[C@@H](O)CN2C(=O)[C@H]([C@@H](C)O)NC1=O ; method: broth dilution ; result: 4 µg/mL
Clc1ccc(C(c2ccccc2)N2CCN(CCn3cncn3)CC2)cc1 ; method: agar ; result: 32 µg/mL
Clc1ccc(C(Cn2ccnc2)OCc2csc3c(Cl)cccc23)c(Cl)c1 ; setting: 48 h ; strain: 65 isolates ; method: visual reading ; result: 4 µg/mL
CC[C@@H]([C@H](C)O)n1ncn(-c2ccc(N3CCN(c4ccc(OC[C@@H]5CO[C@@](Cn6cncn6)(c6ccc(F)cc6F)C5)cc4)CC3)cc2)c1=O ; strain: 15 strains ; result: 0.125 µg/mL
CCC(C)n1ncn(-c2ccc(N3CCN(c4ccc(OC[C@H]5CO[C@](Cn6cncn6)(c6ccc(Cl)cc6Cl)O5)cc4)CC3)cc2)c1=O ; method: broth dilution ; result: >4 µg/mL
c1ccc(C(c2ccccc2)n2cncn2)cc1 ; method: agar ; result: 32 µg/mL
CCC(C)n1ncn(-c2ccc(N3CCN(c4ccc(OC[C@H]5CO[C@](Cn6cncn6)(c6ccc(Cl)cc6Cl)O5)cc4)CC3)cc2)c1=O ; strain: 10 isolates ; result: 1.6 µg/mL

A second listing of 2 rows from above:

smiles | setting | strain | method | result
CC[C@@H]([C@H](C)O)n1ncn(-c2ccc(N3CCN(c4ccc(OC[C@@H]5CO[C@@](Cn6cncn6)(c6ccc(F)cc6F)C5)cc4)CC3)cc2)c1=O | - | 15 strains | - | 0.125 µg/mL
CCC(C)CC(C)CCCCCCCCC(=O)N[C@H]1C[C@@H](O)[C@H](NCCN)NC(=O)[C@@H]2[C@@H](O)CCN2C(=O)[C@H]([C@H](O)CCN)NC(=O)[C@H]([C@H](O)[C@@H](O)c2ccc(O)cc2)NC(=O)[C@@H]2C[C@@H](O)CN2C(=O)[C@H]([C@@H](C)O)NC1=O | - | - | broth dilution | 4 µg/mL

Lines come from different laboratories, so protocols vary. An empty or dashed field is not shown.